A mixed list of measured activities; the numbers were collected in NIAID ChemDB.

Shared fields: whole-cell or culture tests; organism: Aspergillus niger; read-out: MIC

Lines come from different laboratories, so protocols vary. An empty or dashed field is not shown. a–b is a range or a potency band.

SMILES,strain or isolate,method,conditions,result
O=C(N[C@H](Cc1cn(Cc2ccccc2[N+](=O)[O-])nn1)C(=O)OCc1cn(Cc2ccccc2[N+](=O)[O-])nn1)OCc1ccccc1,MTCC 281,,,8.9 µM
CN1CCC(n2cc(CN3CCc4sccc4C3)nn2)CC1,NCIM 1196,agar,,>200 µg/mL
CCCCCCCCCCCC(=O)NC(CCCN)C(N)=O,ATCC 64028,broth dilution,,>100 µg/mL
OB(O)c1ccccc1CN1CCOCC1,,turbidity,,250 µg/mL
Cc1ccc(C2CC(Cc3ccc4ccccc4c3)=Cc3[nH][nH]c(=O)c32)cc1,,agar diffusion,,200 µg/mL
C[C@@H](c1ncncc1F)[C@](O)(Cn1cncn1)c1ccc(F)cc1F,,broth dilution,,0.25 µg/mL
COc1c(CN(C)C)cccc1C1OC(c2ccncc2)=NN1C(C)=Nc1ccc(F)cc1,MTCC 8189,,,12.5 µg/mL
OB1OC(N2CCCCC2)c2ccccc21,,turbidity,,31.2 µg/mL
CCCOC(=O)CC(c1nccn1C)c1nccn1C,ATCC 16404,broth dilution,48 h,>512 µg/mL
OB(O)c1c(F)cc(F)cc1F,,turbidity,,125 µg/mL
Cc1ccc(NC(=O)CCN2C(=O)S/C(=C\c3ccc(C)cc3C)C2=O)cc1,,,,50 µg/mL
CCC(=O)N1CCC(n2cc(CN3CCc4sccc4C3)nn2)CC1,NCIM 1196,agar,,>200 µg/mL
Cn1ccnc1C(=O)c1nccn1C,,broth dilution,48 h,>512 µg/mL
O=C(CCN1C(=O)S/C(=C\c2ccccc2Br)C1=O)Nc1ccccc1O,,,,25 µg/mL
CC1CCC(C(C)C)C(OC(=O)CCl)C1,,,,6.76 µM
Cc1ncc(-c2ccc(I)cc2C(=O)N[C@@H](Cc2ccccc2)C(=O)NCC(=O)N[C@@H](Cc2ccccc2)C(=O)O)[nH]1,,,,50 µg/mL
CC1CCC(C(C)C)C(OC(=O)c2cccc(Br)c2)C1,,,,9.12 µM
Cc1ccc(NC(=O)CCN2C(=O)S/C(=C\c3ccccc3F)C2=O)c(Cl)c1,,,,12.5 µg/mL
CCCCCCCC(=O)NC(CCCN)C(=O)NC(CCCN)C(=O)NC(CCCN)C(=O)NC(CCCN)C(N)=O,ATCC 64028,broth dilution,,>100 µg/mL
CC(C)(C)COC(=O)N[C@H](Cc1cn(Cc2ccc([N+](=O)[O-])cc2)nn1)C(=O)OCc1cn(Cc2ccc([N+](=O)[O-])cc2)nn1,MTCC 281,,,9.2 µM
O=c1[nH][nH]c2c1C(c1ccc(F)cc1)CC(Cc1ccc3ccccc3c1)=C2,,agar diffusion,,12.5 µg/mL
N#Cc1ccc(Nc2nc(Oc3ncnc4ccccc34)nc(N3CCN(c4ccccc4)CC3)n2)cc1C(F)(F)F,MTCC 282,,,>100 µg/mL
C=C1C(=O)O[C@@H]2/C=C(\C)CC/C=C(\C)CC[C@@H]12,MTCC 1344,agar diffusion,,250 µg/mL
CC1CCC(C(C)C)C(OC(=O)c2ccc(Cl)cc2Cl)C1,,,,11.22 µM
COC(=O)/C=C/c1ccc(OC)cc1,,broth dilution / resazurin,,500 µg/mL
N=c1oc2ccccc2c2csc(N)c12,,broth dilution,,16 µg/mL
CCN1CCN(c2nc(Nc3ccc(C#N)c(C(F)(F)F)c3)nc(Oc3ncnc4ccccc34)n2)CC1,MTCC 282,,,>100 µg/mL
CCCCCCCCCCCCCC(=O)NC(CCCN)C(=O)NC(CCCN)C(=O)NC(CCCN)C(=O)NC(CCCN)C(N)=O,ATCC 64028,broth dilution,,6.25 µg/mL
COC(=O)[C@@H]1CCCN1C(=O)[C@H](Cc1cnc[nH]1)NC(=O)[C@H](C)NC(=O)[C@@H](NC(=O)c1cc(I)ccc1-c1cnc(C)[nH]1)[C@@H](C)O,,,,12.5 µg/mL
O=c1[nH][nH]c2c1C(c1ccc(Cl)cc1)CC(Cc1ccc3ccccc3c1)=C2,,agar diffusion,,50 µg/mL
COC(=O)CNC(=O)[C@@H](NC(=O)CNC(=O)c1cc(I)ccc1-c1cnc(C)[nH]1)C(C)C,,,,25 µg/mL
CC1CCC2(OC1)OC1CC3C4CCC5C[C@@H](OC6OC(CO)C(OC7OC(CO)C(O)C(OC8CC(OC9OC(CO)C(O)C(O)C9O)C(O)C(CO)O8)C7OC7OC(CO)C(O)C(O)C7O)C(O)C6O)[C@H](O)C[C@]5(C)C4CC[C@]3(C)C1[C@@H]2C,,broth dilution,,>2 µg/mL
Cc1cccc(Cn2cc(COC(=O)[C@@H](Cc3cn(Cc4cccc(C)c4)nn3)NC(=O)OCC(C)(C)C)nn2)c1,MTCC 281,,,10.1 µM
COc1c(CN(C)C)cccc1C1OC(c2ccncc2)=NN1C(C)=Nc1ccccc1Cl,MTCC 8189,,,12.5 µg/mL
O=C(CCN1C(=O)S/C(=C\c2ccccc2)C1=O)Nc1cccc(O)c1,,,,6.25 µg/mL
COC(=O)[C@H](C)NC(=O)[C@H](Cc1c[nH]c2ccccc12)NC(=O)c1ccccc1-c1cnc(C)[nH]1,,,,12.5 µg/mL
CC(C)(C)COC(=O)N[C@H](Cc1cn(CCc2ccccc2)nn1)C(=O)OCc1cn(CCc2ccccc2)nn1,MTCC 281,,,20.2 µM
Cn1cnc(-c2ccccc2)c1,ATCC 16404,broth dilution,48 h,>512 µg/mL
CC1(C)S[C@@H]2[C@H](NC(=O)[C@H](N)c3ccc(O)cc3)C(=O)N2[C@H]1C(=O)O,MTCC 1349,visual reading,,890 µg/mL
C[C@H]1[C@H](O)[C@@H](C)/C=C/C=C/C=C/C=C/C=C/C=C/C=C/[C@H](O[C@@H]2O[C@H](C)[C@@H](O)[C@H](N)[C@@H]2O)C[C@@H]2O[C@](O)(C[C@@H](O)C[C@@H](O)CC[C@H](O)[C@@H](O)C[C@@H](O)CC(=O)O[C@H]1C)C[C@H](O)[C@H]2C(=O)O,ATCC 16404,broth dilution,,1–2 µg/mL
Nc1ccc(O)c2ncccc12,KCTC 1231,,,1.6 µg/mL
Cc1ccc(C)c(/C=C2\SC(=O)N(CCC(=O)Nc3ccccc3O)C2=O)c1,,,,25 µg/mL
CCCCCCCCCCCC(=O)NC(CCCN)C(=O)NC(CCCN)C(N)=O,ATCC 64028,broth dilution,,100 µg/mL
O=C(CCN1C(=O)S/C(=C\c2ccccc2Br)C1=O)Nc1cccc(O)c1,,,,12.5 µg/mL
CCC(=O)OC1CC(C)CCC1C(C)C,,,,7.41 µM
C[C@H]1N(C(=O)c2ccc(C(F)(F)F)cc2)C[C@@H](O)O[C@@]1(Cn1cncn1)c1ccc(F)cc1F,Isolate 2,,,100 µg/mL
N=C(N)c1ccc(OCCCCCCOc2ccc(C(=N)N)cc2)cc1,As2,agar diffusion / agar,,33 µg/mL
CCCCCCCCCCCCCC(=O)NC(CCCN)C(=O)NC(CCCN)C(=O)NC(CCCN)C(=O)NC(CCCN)C(=O)NC(CCCN)C(N)=O,ATCC 64028,broth dilution,,6.25 µg/mL
O=C(Nc1nc2ccccc2[nH]1)c1cn[nH]c1C(=O)c1ccc(Cl)cc1,,broth dilution,,0.625 µg/mL
COC(=O)[C@H](Cc1cc2ccccc2[nH]1)OC(=O)[C@H](C)NC(=O)[C@H](Cc1cc2ccccc2[nH]1)NC(=O)COc1cc(=O)oc2ccccc12,,,,12.5 µg/mL
Cn1ccnc1C(CC(=O)O)c1nccn1C,ATCC 16404,broth dilution,24 h,>512 µg/mL
COC(=O)[C@H](C)OC(=O)[C@H](Cc1cnc[nH]1)NC(=O)CNC(=O)[C@H](Cc1cnc[nH]1)NC(=O)COc1c(Br)c(=O)oc2ccccc12,,,,12.5 µg/mL
CCCCCCCC(=O)NC(CCCN)C(=O)NC(CCCN)C(=O)NC(CCCN)C(N)=O,ATCC 64028,broth dilution,,>100 µg/mL

The last 7 rows once more:

SMILES | strain or isolate | method | conditions | result
N=C(N)c1ccc(OCCCCCCOc2ccc(C(=N)N)cc2)cc1 | As2 | agar diffusion / agar |  | 33 µg/mL
CCCCCCCCCCCCCC(=O)NC(CCCN)C(=O)NC(CCCN)C(=O)NC(CCCN)C(=O)NC(CCCN)C(=O)NC(CCCN)C(N)=O | ATCC 64028 | broth dilution |  | 6.25 µg/mL
O=C(Nc1nc2ccccc2[nH]1)c1cn[nH]c1C(=O)c1ccc(Cl)cc1 |  | broth dilution |  | 0.625 µg/mL
COC(=O)[C@H](Cc1cc2ccccc2[nH]1)OC(=O)[C@H](C)NC(=O)[C@H](Cc1cc2ccccc2[nH]1)NC(=O)COc1cc(=O)oc2ccccc12 |  |  |  | 12.5 µg/mL
Cn1ccnc1C(CC(=O)O)c1nccn1C | ATCC 16404 | broth dilution | 24 h | >512 µg/mL
COC(=O)[C@H](C)OC(=O)[C@H](Cc1cnc[nH]1)NC(=O)CNC(=O)[C@H](Cc1cnc[nH]1)NC(=O)COc1c(Br)c(=O)oc2ccccc12 |  |  |  | 12.5 µg/mL
CCCCCCCC(=O)NC(CCCN)C(=O)NC(CCCN)C(=O)NC(CCCN)C(N)=O | ATCC 64028 | broth dilution |  | >100 µg/mL